Residue numbers refer to the chain shown, from its start.
Target: SARS-COV-2 RBD extracellular domain expressed with a C-terminal myc-myc-hexahistidine tag (SARS-CoV-2)
Experiment: SPR (Biacore), mAb captured by anti-human Fc, RBD-mmH in solution, 25 C

B1: mAb15164 (antibody, V domains shown)
VH: EVQLVESGGGLVQPGGSLRLSCAASGFAVSSNYMTWVRQAPGKGLEWVATIYSGDSTYYADSVKGRFTISRHNSKNTLSLQMNSLRADDTAIYYCARLSGVLSGTYNGAFDIWGQGTMVTVSS
VL: QSALTQPASVSGSPGQSITISCTGTSSDFGNYNIVSWYQQHPGQAPKVMIYEGNKRPSGVSNRFSGSKSGHTASLTISGLQAEDEADYYCSSYAGSSTWVFGGGTKLTVLG
RBD monomer bound at 50 nM (RU): 41.2 RU

B2: mAb15166 (antibody, V domains shown)
VH: EVQLVESGGGLVQPGGSLRLSCAASGFTVTSNYMSWVRQAPGKGLEWVSAIYSGESTYYADSVKGRFTISRDSSKNTLYLQMNSLRVEDTAVYYCASIHDYSNYVGGFDPWGQGTLVTVSS
VL: B1 VL with T25P, N31S, I34L, Q44K, V48L, N54T, H71N
RBD monomer bound at 50 nM (RU): 13.3 RU

B3: mAb15165 (antibody, V domains shown)
VH: EVQLVESGGGLVQPGGSLRLSCAASGFTVSSNYMSWVRQAPGKGLEWVSAIYSGDSTYYADSVKGRFTISKDNSKNTLYLQMNSLRGEDTAVYYCARLGGALQAYDGAFDYWGQGTLATVSS
VL: B1 VL with N31S, I34L, Q44K, V48L, N62I, H71N
RBD monomer bound at 50 nM (RU): 33.9 RU

B4: mAb15163 (antibody, V domains shown)
VH: EVQLVETGGGLIQPGESLRLSCAASGFIVSTNYMNWVRQAPGKGLEWVSVIYRGGSTYYADSVKGRFTISRDNSKNTLFLQMNSLRAEDTAVYYCARGHEDFDYDTPASGAFDIWGQGTMVTVSS
VL: QSALTQPPSASGSPGQSVTISCTGTSSDVGGHNYVSWYQQHPGKAPKVMIYEVSKRPSGVPDRFSGSKSGNTASLTVSGLQAEDEADYYCSSYAGSNKFVFGTGTKVTVLG
RBD monomer bound at 50 nM (RU): 51 RU

B5: mAb14289 (antibody, V domains shown)
VH: QVQLVQSGPEVKKPGASVKVSCKASGYTFTSYAISWVRQAPGQGLEWMGWISAYNGNTNYAQKLQGRVTMTTDTFTSTAYMELRSLRSDDTAVYYCAVPADHITFDYWGQGTLVTVSS
VL: EIVLTQSPGTLSLSPGERATLSCRASQSVSSYLAWYQQKPGQAPRLLIHGASSRATGIPDRFSGSGSGTDFTLTISRLEPEDFAVYYCQQYGSSFLTFGGGTKVEIKR
RBD monomer bound at 50 nM (RU): 151 RU

B6: mAb15161 (antibody, V domains shown)
VH: EVQLVESGGGLVQPGGSLRLSCAASGFTFSSYEMNWVRQAPGKGLEWVSYISSSGSILYYADSVKGRFTASRDNAKNSLYLQMNSLRAEDTGVYYCARREYQLLRPFEFWGQGTLVTVSS
VL: not shown
RBD monomer bound at 50 nM (RU): 40.3 RU

B7: mAb14284 (antibody, V domains shown)
VH: QITLKESGPTLVKPTQTLTLTCTFSGFSFSTSGVGVGWIRQPPGKTLEWLALIYWDDDKRYSPSLKSRLTITKDTSKNQVVLTMTNMDPVDTATYFCAHHGIPTIFGYWGQGALVTVSS
VL: QSALTQPASVSGSPGQSITISCTGTSSDLGVFNYVSWYQQHPGKAPKLMIYEVTNRPSGVSNRFSGSKSGNTASLTISGLQAEDEADYYCSSYTTSSTVFGGGTKLTVLG
RBD monomer bound at 50 nM (RU): 236 RU

B8: mAb14235 (antibody, V domains shown)
VH: QITLKESGPTLVKPTQTLTLTCTFSGFSLNTGGVGVGWIRQPPGNALEWLALIYWDDDKRYNPSLKTRLTISKDTSKNQVVLTMTNMDPVDTATYFCAHLTIAVIVDFWGQGTLVTVSS
VL: B7 VL with G24A, L29V, V31T, F32Y, Y38F, Q40H, S96T, T98I
RBD monomer bound at 50 nM (RU): 117 RU

B9: mAb15158 (antibody, V domains shown)
VH: EVQLVESGGGLVQPGGSLRLSCAASGFSFSSNWMSWVRQAPGKGLEWVGNINQDGSEKYYVDSVEGRFTISRDNAKKSLYLQMNSLRAEDTAVYYCARDLGVLWFGDFVDWGQGALVTVSS
VL: DIQMTQSPSSLSASVGDRVTITCRASQAISNSLAWYQQKPGKAPKLLLYAASTLESGVPSRFSGSGSGTDYTLTISSLQPEDFATYYCLQYYGSPRTFGQGTKVEIKR
RBD monomer bound at 50 nM (RU): 26.3 RU

B10: mAb14260 (antibody, V domains shown)
VH: EVQLVESGGGLVQPGGSLRLSCAASGFTFSIYEMNWVRQAPGKGLEWVSYITSSGFTIYYADSVKGRFTISRDNAKNSLYLQMHSLRAEDTAVYYCATSSSSGYYFDYWGQGTLVTVSS
VL: not shown
Kd: 0.738 nM
RBD monomer bound at 50 nM (RU): 174 RU
koff: 0.00138 s⁻¹
kon: 1.87e+06 M⁻¹ s⁻¹
t½: 8.4 min

B11: mAb15157 (antibody, V domains shown)
VH: EVQLVESGGALVQPGGSLRLSCAASGFPFTIYAMTWVRQAPGKGLEWVSVITGSGDSTYYADSVKGRFTISRDNSKNTLYLQMNSLRAEDTAVYYCVKTGEGFFYYYYGMDVWGQGTTVTVSS
VL: QSVLTQPPSVSAAPGQKVTISCSGSSSNIGNSYISWYQQLPGTAPKLLIYVNNKRPSGIPDRFSGSKSGTSATLGITGLQTGDEADYYCGTWDSSLSAGVFGSGTKVTVLG
RBD monomer bound at 50 nM (RU): 20.3 RU

B12: mAb14294 (antibody, V domains shown)
VH: EVQLVESGGGLVQPGGSLRLSCAASGFTFSNHWMDWVRQAPGKGLVWVSRINSDGSSTDYADSVRGRFTMSRDNAKNTLYLQMSSLRAEDTAVYYCAREGMIFGAVIIPGWYFDLWGRGALVTVSS
VL: EIVLTQSPGTLSLSPGERATLSCRASQSVSSSQLAWYQQKPGQAPRLLIYGASSRATGIPDRFSGSGSGTDFTLTISRLEPEDFAVYYCQQYDSFGQGTKLEIKR
RBD monomer bound at 50 nM (RU): 138 RU

B13: mAb15160 (antibody, V domains shown)
VH: EVQLVESGGGLVQPGGSLRLSCSASGFTFSRYAMYWVRQAPGKGLEYVSAISSDGGSTYDADSVKGRFTISRANSKNTLYLQMSSLRAEDTAVYYCVKGLRELLYYYYGMDVWGQGTTVTVSS
VL: DIQMTQSPSSLSASVGDRVTITCRAGQSISSFLNWYQQKPGKAPKLLIYAASSLQSGVPSRFSGSGSGTDFTLTISSLQPEDFATYYCQQSYITPFTFGPGTKVDIKR
RBD monomer bound at 50 nM (RU): 9.3 RU

B14: mAb14312 (antibody, V domains shown)
VH: EVQLVESGGGLVQPGGSLRLSCAASGFTVSRSYMTWVRQAPGKGLEWVSVIFTGGRTDHADSVKGRFTISRHNSKNTLYLQMNSLRTEDTAVYYCARVAIVGATGAFDIWGQGTMVTVSS
VL: QSVLTQPPSVSGAPGQRVTISCTGSSSNIGAGDDVHWYQQLPGTAPKLLIYGNSNRPSGVPDRFSGSKSGTSASLAITGLQAEDEADYYCQSYDSSLSGSVVFGGGTKLTVLG
RBD monomer bound at 50 nM (RU): 191 RU

B15: mAb14258 (antibody, V domains shown)
VH: QLQLQESGPGLVKPSETLSLICTGSGDSISSSHYYWGWIRQPPGKGLEWIGSTYFSGSTYYNPSLKSRVSISVDTSKNQVSLKLISVTAADTAVYYCAREMGATLGDYWGPGTLVTVSS
VL: QSVLTQPPSASGTPGQRVTISCSGSSSNIGNNYVYWYQQFPGTTPRLLIYRNNERPSGVPDRFSGSKSGTSASLVISGLRSEDEADYYCAAWDDSLSAHYVFGTGTKVTVLG
RBD monomer bound at 50 nM (RU): 180 RU

B16: mAb15151 (antibody, V domains shown)
VH: QVQLVESGGGVVQPGRSLRLSCAASGFVFNSYGMHWVRQAPGKGLEWVAVLWYEGSKNYYADSVKGRFTISRDNSKNTLYLQMNSLRAEDTAVYYCARHGSGSFFGYYLDYWGQGTLVTVSS
VL: DIQMTQSPSSLSASVGDRVTITCRASHNINDFLNWYQQKPGKAPRLLIYAASSLQSGVPSRFSGSGSGTDFTLTISSLQPEDFATYYCQESYTTPPTFGQGTKLEIKR
RBD monomer bound at 50 nM (RU): 63.4 RU

B17: mAb15159 (antibody, V domains shown)
VH: EVQLVESGGGLVQPGGSLRLSCAASGITVSSNYMTWVRQAPGKGLEWVSLIYSGGSTFYADSVRGRFTISRDNSKNTLYLQMNSLRAEDTAVYYCARDLVVYGMDVWGQGTTVTVSS
VL: DIQLTQSPSSLSASVGDRVTITCRASQGISSYLAWYQQKPGKAPKLLIYAASTLQSGVPSRFSGSGSGTDFTLTISSLQPEDFATYYCQHLNSDPHTFGQGTKLEIKR
RBD monomer bound at 50 nM (RU): 62 RU

B18: mAb15170 (antibody, V domains shown)
VH: B17 VH with S25T, T35S, R64K, D72H, N83S, V101D, Y102F
VL: B17 VL with S31N, A84G, H90Q, P95S, H96P, L104V
RBD monomer bound at 50 nM (RU): 21.8 RU

B19: mAb15162 (antibody, V domains shown)
VH: EVQLVETGGGLIQPGGSLRLSCAASEFIVSRNYMSWVRQAPGKGLEWVSLIYSGGSTYYADSVKGRFTISRDNSKNILYLQMNSLRAEDTAVYYCARDRGGISDYWGQGTLVTVSS
VL: DIQMTQSPSSLSASVGDRVTITCQASQDINKYLNWFQQKPGKAPKLLIYDASNLETGVPSRFSGSGSGTDFTFTISSLQPEDIATYYCQQYDNLPRTFGQGTKLEIKR
RBD monomer bound at 50 nM (RU): 49.6 RU

B20: mAb14283 (antibody, V domains shown)
VH: QVQLQESGPGLVKPSGTLSLTCDVSGGSISSNNWWSWVRQRPGKGLQWIGEIYHNENTNYNPSLKSRVIMSIDKSKNQFSLKLTSVTAADTAVYYCARGDVLDWFDPWGQGTLVTVSS
VL: QSALTQPASVSGSPGQSTTISCTGTSSDVGGYNYVSWYQQYPGKAPKLMIYDVTNRPSGVSHRFSGSKSGNTASLTISGLQAEDEADYYCSSYTSSSTVIFGGGTKLTVLG
RBD monomer bound at 50 nM (RU): 172 RU

B21: mAb15150 (antibody, V domains shown)
VH: EVQLVETGGGLIQPGGSLRLSCAAPGFIVSSNYMSWVRQAPGKGLEWVSLLYPGGSTYYADSVKGRFTISRDNSKNTLYLQMNSLRADDTAVYYCARVLPIVEDHFDYWGQGTLVTVSS
VL: DIQLTQSPSFLSASVGDRVTITCRASQGMSSYLAWYQKKPGKAPKLLIYGATILQSGVPSRFSGSGSGTEFTLTISSLQPEDFATYYCQQLNSDPLYMYTFGQGTKLEIKR
RBD monomer bound at 50 nM (RU): 33.3 RU

B22: mAb15156 (antibody, V domains shown)
VH: QLQLQESGPGLVKSSETLSLTCTVSASITGSTYYWGWIRQPPGKGLEWIGSIYYSGTTYYKASLKSRVTISVDTSKNQFSLKLTSVTVADTAVYYCVSHLLGNYHKYGMDVWGQGTTVTVSS
VL: QSVLTQPPSASGTPGQRVTISCSGSRSNIGINTVNWYQQFPGTALNLLIFSDNQRPSGVPDRFSGSKSGTSASLAISGLQSEDEADYYCAAWDDSLNGPDWVFGGGTKLTVLG
RBD monomer bound at 50 nM (RU): 91 RU

Source: patent publication US20260069689A1, “ANTI-SARS-COV-2-SPIKE GLYCOPROTEIN ANTIBODIES AND ANTIGEN-BINDING FRAGMENTS” (Regeneron, published 2026)
